Results of unrelated studies side by side (data: NIAID ChemDB).

Shared fields: whole-cell or culture tests; species: Mycobacterium tuberculosis

ECn: concentration that inhibits the pathogen or its effect by n%. Blank or dashed fields: not listed here. Inhibition is in % at the dose shown (toxicity tests: loss of growth or viability). Rows are shuffled and stem from different studies. MIC bound comes from a single tested concentration.

smiles	strain or isolate	read by	read-out	dose	value
NC[C@H]1O[C@H](O[C@H]2[C@H](O)[C@@H](O[C@H]3O[C@H](CO)[C@@H](O)[C@H](N)[C@H]3O)[C@H](N)C[C@@H]2N)[C@H](O)[C@@H](O)[C@@H]1O	TN3218 (W3)		MIC		>256 µg/mL
Cc1cc(O)c(C=O)c2c1C(=O)Oc1c(CO)c(O)c3c(c1O2)C(O)OC3=O	H37Rv	BACTEC	inhibition	12.8 µg/mL	20%
C1=C(CCNCCNCCC2=CCCCC2)CCCC1			MIC		12.5 µM
CCC1=CC(CC)C2C(=O)NC1C2C(=O)O	H37Rv		MIC		50 µg/mL
CCOC(=O)Nc1cc(NNc2cc(NC(=O)OCC)nc(N)c2[N+](=O)[O-])c([N+](=O)[O-])c(N)n1	H37Rv		EC50		>12.5 µg/mL
CC(C)c1ccc2c(c1)CC[C@H]1[C@](C)(CNCCNCCc3ccc(O)c(O)c3)CCC[C@]21C			MIC		50 µM
O=C(Nc1ccc([N+](=O)[O-])c2c1C(=O)c1ccccc1C2=O)c1ccccc1	H37Rv	BACTEC	MIC bound		>12.5 µg/mL
CCOC(=O)Nc1cc2c(c(NC(=O)CBr)n1)N=C(c1ccccc1)CO2	H37Rv		EC50		>12.5 µg/mL
CCCCCCCCCCCNCCNN1CCCC1			MIC		50 µM
S=C(S)NNc1ccccc1	RMP-R		MIC		>12.5 µg/mL
CC(=O)NCc1ccc(O)cc1	H37Rv		MIC		>100 µg/mL
COc1ccc(OC)c(CCNCCNCCCN2CCCC2=O)c1			MIC		12.5 µM
CCCCCCCCCCCCCCCCNc1ccc(CNCCNC[C@@H](C)O)cc1			MIC		50 µM
CO[C@H]1/C=C/O[C@@]2(C)Oc3c(C)c(O)c4c(=O)c(c5oc6cc(N7CCN(C(C)C)CC7)cc(=O)c6nc5c4c3=C2O)NC(=O)/C(C)=C\C=C\[C@H](C)[C@H](O)[C@@H](C)[C@@H](O)[C@@H](C)[C@H](OC(C)=O)[C@@H]1C	2230 (rifampin-resistant)		MBC		0.4 µg/mL
CN1CC(=O)NC2C(=CN(Cc3ccccc3)c3ccccc32)C1=O	H37Rv	BACTEC	inhibition	12.5 µg/mL	8%
Cc1ccc(Cl)cc1C(=O)c1ccccc1C(=O)O	H37Rv		MIC		>100 µg/mL
Clc1ccccc1CCNCCNC(c1ccccc1)c1ccccc1			MIC		50 µM
CCOC(=O)Nc1cc(NC/C(=N/O)c2cccc(OC)c2)c([N+](=O)[O-])c(N)n1	H37Rv		EC50		>12.5 µg/mL
CCN(CC)CCNc1n[n+]([O-])c2ccccc2[n+]1[O-]	H37Rv	BACTEC	MIC bound		>6.25 µg/mL
O=C1CC(c2ccccc2)Oc2cc(F)ccc21	H37Rv		inhibition	12.5 µg/mL	7%
COc1ccccc1/C=N/N1C(=O)C2C3C=CC(O3)C2C1=O	H37Rv	BACTEC	MIC bound		>12.5 µg/mL
Cn1c(=N)sc2ccccc21	H37Rv		MIC		>100 µg/mL
Cc1[nH]nc(-c2cccnc2)c1N=NN1CCOCC1	H37Rv	resazurin	MIC bound		>6.25 µg/mL
NS(=O)(=O)c1ccc(NC(=O)CC(=O)c2ccccc2)cc1	H37Rv		MIC		>100 µg/mL
CO[C@H]1/C=C/O[C@@]2(C)Oc3c(C)c(O)c4c(O)c(c(/C=N/N5CCN(C)CC5)c(O)c4c3C2=O)NC(=O)/C(C)=C\C=C\[C@H](C)[C@H](O)[C@@H](C)[C@@H](O)[C@@H](C)[C@H](OC(C)=O)[C@@H]1C	TN805		MIC		>32 µg/mL
NNC(=O)Cc1cccc2cc(Cl)c(Cl)cc12	H37Rv	BACTEC	inhibition	12.5 µg/mL	-15%
CCCCC(CC)CN1CN(CC(CC)CCCC)CC(C)(NCCNC2CCCCC2)C1			MIC		12.5 µM
CN(C)c1ccc(/C=N/N2C(=O)CSC2=S)c(Cl)c1	H37Rv	BACTEC	MIC bound		>12.5 µg/mL
NC1CCN(c2c(F)cc3c(=O)c(C(=O)O)cn(C4CC4)c3c2Cl)C1	ATCC 35826		MBC		0.125 µg/mL
CCOC(=O)c1ccc(-n2c(=O)oc3ccccc3c2=O)cc1	CNCTC MY331/88		MIC		8 µM
CCOC(=O)Nc1cc(NCC(=O)c2ccc(OC)cc2)c([N+](=O)[O-])c(N)n1	H37Rv		EC50		>12.5 µg/mL
Nc1cccc(-c2ccncc2)c1	H37Rv		MIC		>100 µg/mL
CC(C)COC(=O)N1N=NC2C3CC(=O)C(O3)C21	H37Rv	BACTEC	MIC bound		>12.5 µg/mL
COc1ccc(CNCCNCC23CC4CC(CC(C4)C2)C3)cc1OC			MIC		50 µM
COc1cccc2c1[n+]([O-])c1cccc(O)c1[n+]2[O-]	CS-R		MIC		0.8 µg/mL
CC[C@H]1OC(=O)[C@H](C)[C@@H](O[C@H]2C[C@@](C)(OC)[C@@H](O)[C@H](C)O2)[C@H](C)[C@@H](O[C@@H]2O[C@H](C)C[C@H](N(C)C)[C@H]2O)[C@](C)(O)C[C@@H](C)C(=O)[C@H](C)[C@@H](O)[C@]1(C)O	ATCC 35828		MBC		>8 µg/mL
N=C(N)c1ccc(C=Cc2ccc(C(=N)N)cc2)cc1	H37Rv		MIC		100 µg/mL
COc1ccc2oc(=O)n(-c3ccc(Cl)c(Cl)c3)c(=O)c2c1	CNCTC MY331/88		MIC		62.5 µM
O=C(Nc1cnc2c(Cl)cc(NC(=O)OCc3ccccc3)nc2n1)OCc1ccccc1	H37Rv		inhibition	12.5 µg/mL	1%
CC(C)=CCC/C(C)=C/CNCCNCc1cccc(C)c1			MIC		50 µM
CCOC(=O)Nc1cc(NC)c([N+](=O)[O-])c(N)n1	H37Rv		inhibition	12.5 µg/mL	0%
S=C(Nc1ccccc1)c1ccccc1	H37Rv		MIC		>100 µg/mL
O=C(CCCCC(=O)Nc1cc(C2=NCCN2)cc(C2N=CCN2)c1)Nc1cc(C2=NCCN2)cc(C2=NCCN2)c1	H37Rv	resazurin	inhibition	6.25 µg/mL	55%
COc1ccc2c(=O)n(-c3ccc(C)cc3)c(=O)oc2c1	CNCTC MY331/88		MIC		16 µM
C/C(=N\NC(=O)C(N)=O)c1c(O)cc(C)oc1=O	H37Rv	BACTEC	inhibition	12.5 µg/mL	-2%
CC[C@H]1OC(=O)[C@H](C)[C@@H](O[C@H]2C[C@@](C)(OC)[C@@H](O)[C@H](C)O2)[C@H](C)[C@@H](O[C@@H]2O[C@H](C)C[C@H](N(C)C)[C@H]2O)[C@](C)(O)C[C@@H](C)CN(C)[C@H](C)[C@@H](O)[C@]1(C)O	ATCC 35826		MBC		>8 µg/mL
COc1ccc(C(=O)/C=C/c2cccc(I)c2)c(O)c1			EC50		>12.5 µg/mL
CCOc1ccccc1CNCCNCCNc1ccccc1			MIC		25 µM
O=[N+]([O-])c1cccc(-c2ccncc2)c1	H37Rv		MIC		50 µg/mL
Cc1ccc2oc(=O)n(-c3ccc(Cl)c(Cl)c3)c(=O)c2c1	CNCTC MY331/88		MIC		16 µM
Cc1cc(C)cc(C(=O)NC(c2ccncc2)C2N=C(c3ccccc3)OC2=O)c1	H37Rv	BACTEC	inhibition	12.5 µg/mL	2%
COc1ccc(C(=O)/C=C/c2cccnc2)cc1	H37Rv		EC50		>12.5 µg/mL
Cc1cc(-c2ccc(N=Nc3cc(S(=O)(=O)[O-])c4cccnc4c3O)c(C)c2)ccc1N=Nc1cc(S(=O)(=O)[O-])c2cccnc2c1O.[Na+].[Na+]	H37Rv	BACTEC	MIC bound		>12.5 µg/mL
CC[C@H]1OC(=O)[C@H](C)[C@@H](O[C@H]2C[C@@](C)(OC)[C@@H](O)[C@H](C)O2)[C@H](C)[C@@H](O[C@@H]2O[C@H](C)C[C@H](N(C)C)[C@H]2O)[C@](C)(OC)C[C@@H](C)C(=O)[C@H](C)[C@@H](O)[C@]1(C)O	ATCC 35820		MBC		>8 µg/mL
CC(C)=CCc1c2c(c3occ(-c4ccc(OS(=O)(=O)c5ccc(C)cc5)c(OS(=O)(=O)c5ccc(C)cc5)c4)c(=O)c3c1O)C=CC(C)(C)O2	H37Rv	BACTEC	MIC bound		>12.5 µg/mL
CCC(=O)c1cccc2ccccc12	H37Rv		MIC		>100 µg/mL
CO[C@H]1/C=C/O[C@@]2(C)Oc3c(C)c(O)c4c(O)c(c(/C=N/N5CCN(C/C=C/c6ccccc6)CC5)c(O)c4c3C2=O)NC(=O)/C(C)=C\C=C\[C@H](C)[C@H](O)[C@@H](C)[C@@H](O)[C@@H](C)[C@H](OC(C)=O)[C@@H]1C	29 (rifampin-resistant)		MIC		0.05 µg/mL
Fc1ccccc1CCNCCNCCC(c1ccccc1)c1ccccc1			MIC		50 µM
Clc1cc(-c2ccccc2)oc1-c1ccccc1	H37Rv		MIC		25 µg/mL
O=c1cc(-c2ccccc2)oc2ccc(-c3ccccc3-c3cc(=O)c4ccccc4o3)cc12	H37Rv		EC50		>12.5 µg/mL
Nc1ccc([N+](=O)[O-])cc1O	H37Rv		MIC		100 µg/mL
N#CC(N=Nc1cccc2ccccc12)C(N)=O	H37Rv	BACTEC	MIC		≥12.5 µg/mL
COc1cc(Br)cc(Br)c1OC	H37Rv		MIC		>100 µg/mL
NCC[C@H](O)C(=O)N[C@@H]1C[C@H](N)[C@@H](O[C@H]2O[C@H](CN)[C@@H](O)[C@H](O)[C@H]2O)[C@H](O)[C@H]1O[C@H]1O[C@H](CO)[C@@H](O)[C@H](N)[C@H]1O	MDR16	broth dilution / resazurin	MIC		8 µg/mL
Nc1ccc(S(N)(=O)=O)cc1SSc1cc(S(N)(=O)=O)ccc1N	H37Rv	BACTEC	MIC bound		>12.5 µg/mL
FC(F)(F)c1cccc(N=Nc2cccc(C(F)(F)F)c2)c1	H37Rv		MIC		>100 µg/mL
O=C1OC(CCl)CN1/N=C/c1ccc([N+](=O)[O-])o1	H37Rv	resazurin	MIC bound		>6.25 µg/mL
CC(C)c1ccc2c(c1)CC[C@H]1[C@](C)(CNCCNN3CCCC3)CCC[C@]21C			MIC		50 µM
Oc1cccc2c(O)cccc12	H37Rv		MIC		12.5 µg/mL
O=C(/C=C/c1cccc(O)c1)c1ccccc1O	H37Rv		EC50		>12.5 µg/mL
CCc1ccc(OCCO)c(Cl)c1	H37Rv		MIC		100 µg/mL
COc1ccc2c(c1)OC/C(=C\c1ccc([N+](=O)[O-])o1)C2=O	H37Rv	BACTEC	MIC bound		>12.5 µg/mL
CC(C)c1ccc(C(=O)O)cc1N	H37Rv		MIC		>100 µg/mL
CC1(C)[C@H]2CC[C@@H](CNCCNC(c3ccccc3)c3ccccc3)[C@@H]1C2			MIC		25 µM
O=c1oc(-c2ccccc2)c(-c2ccccc2)c2cc(Br)c(Br)cc12	H37Rv		MIC		100 µg/mL
c1ccc(C(NCCNC2CCCc3ccccc32)c2ccccc2)cc1			MIC		50 µM
COc1cc(NS(=O)(=O)c2ccc(C)cc2)ccc1NC(C)=O	H37Rv		MIC		>100 µg/mL
O=c1cc(-c2cccc(-c3cccc4c(=O)cc(-c5ccccc5)oc34)c2)oc2ccccc12			EC50		>12.5 µg/mL
CCCCCCCCCCCNCCNCCCc1ccccc1			MIC		25 µM
O=C(CCCCCC(=O)c1ccccc1)c1ccccc1	H37Rv		MIC		50 µg/mL

Again, the opening 11 rows:

NC[C@H]1O[C@H](O[C@H]2[C@H](O)[C@@H](O[C@H]3O[C@H](CO)[C@@H](O)[C@H](N)[C@H]3O)[C@H](N)C[C@@H]2N)[C@H](O)[C@@H](O)[C@@H]1O ; strain or isolate: TN3218 (W3) ; read-out: MIC ; value: >256 µg/mL
Cc1cc(O)c(C=O)c2c1C(=O)Oc1c(CO)c(O)c3c(c1O2)C(O)OC3=O ; strain or isolate: H37Rv ; read by: BACTEC ; read-out: inhibition ; dose: 12.8 µg/mL ; value: 20%
C1=C(CCNCCNCCC2=CCCCC2)CCCC1 ; read-out: MIC ; value: 12.5 µM
CCC1=CC(CC)C2C(=O)NC1C2C(=O)O ; strain or isolate: H37Rv ; read-out: MIC ; value: 50 µg/mL
CCOC(=O)Nc1cc(NNc2cc(NC(=O)OCC)nc(N)c2[N+](=O)[O-])c([N+](=O)[O-])c(N)n1 ; strain or isolate: H37Rv ; read-out: EC50 ; value: >12.5 µg/mL
CC(C)c1ccc2c(c1)CC[C@H]1[C@](C)(CNCCNCCc3ccc(O)c(O)c3)CCC[C@]21C ; read-out: MIC ; value: 50 µM
O=C(Nc1ccc([N+](=O)[O-])c2c1C(=O)c1ccccc1C2=O)c1ccccc1 ; strain or isolate: H37Rv ; read by: BACTEC ; read-out: MIC bound ; value: >12.5 µg/mL
CCOC(=O)Nc1cc2c(c(NC(=O)CBr)n1)N=C(c1ccccc1)CO2 ; strain or isolate: H37Rv ; read-out: EC50 ; value: >12.5 µg/mL
CCCCCCCCCCCNCCNN1CCCC1 ; read-out: MIC ; value: 50 µM
S=C(S)NNc1ccccc1 ; strain or isolate: RMP-R ; read-out: MIC ; value: >12.5 µg/mL
CC(=O)NCc1ccc(O)cc1 ; strain or isolate: H37Rv ; read-out: MIC ; value: >100 µg/mL